Experimental data: PubChem BioAssay AID651820 (National Center for Advancing Translational Sciences (NCATS), 2012)
Only a part is listed here, and it is no random draw. Results filed as inconclusive are left out. Calls of active or inactive are those of the source. Calls come from the whole dose curve; as a rule, active = well fitted inhibition curve with a large enough effect; inconclusive = small, poorly fitted or top-dose-only effect, or another doubt; inactive = no such curve, though single readings can be large or run the other way.
% is set by controls: 0 for no effect and ±100 for the full control effect.

Assay: qHTS Assay for Inhibitors of Hepatitis C Virus (HCV)
Conditions: Huh7.5.1 HCVcc-Cre (HCVcc is cell-culture hepatitis C virus) infection, luciferase reporter, 44 h; series mostly up to 41.8 µM; activity change, negative = inhibition: at the top concentration
Source text: Hepatitis C virus (HCV) infects about 200 million people in the world. Many infected people progress to chronic liver disease including cirrhosis with a risk of developing liver cancer. To date, there is no effective vaccine for hepatitis C. Current therapy based on interferon is only effective in about half of the patients and is associated with significant adverse effects. The fraction of people with HCV who can complete a successful treatment is estimated to be no more than 10 percent. Recent development of direct-acting antivirals against HCV, such as protease and polymerase inhibitors, is promising but still requires combination with peginterferon and ribavirin for maximal efficacy. In addition, these agents are associated with high rate of resistance and many have significant side effects. Due to the lack of a culture system for infectious HCV, the search for new HCV drugs has been greatly hampered. […] High-throughput screening (HTS) with an infectious HCV system would cover the complete spectrum of potentially druggable targets in all stages of HCV lifecycle, and would have more biological relevance than other cell-based assays. Moreover, targeting several key processes in the viral life cycle may not only increase antiviral efficacy; more importantly, it may also reduce the capacity of the virus to develop resistance to the compound. The goal of this project is to identify novel HCV inhibitors as new therapies for hepatitis C, using a highly sensitive and specific assay platform which is based on a HCV infectious cell culture system established in the laboratory and adapted for high-throughput HCV drug screen. NIH Chemical Genomics Center [NCGC] NIH Molecular Libraries Probe Centers Network [MLPCN] MLPCN Grant: MH095511 Assay Submitter (PI): Jake Liang, NIDDK
The assay will start with plating 1,000 cells/well in 3 µL volume and culture for 4 h. Then 23 nL of compounds from the library collection will be added to each well, followed by adding 2.5 µL of HCVcc-Cre virus (~ 0.5 moi) and further cultured for 44 h before the luciferase assay. A volume of 4.5 µL luciferase substrates will be added to each well and the plates will be incubated at room temperature for 15 min. and then read for 15 sec. for the luciferase activity
In the case of `CCCOP(=S)(Nc1nc(N)cc(=O)[nH]1)OCCC`, the “activity change, negative = inhibition” value was inactive: 11.3%. With `Nc1cccc2c([As](=O)(O)O)cccc12` the “activity change, negative = inhibition” value was inactive: 9.57%. In the case of `COc1cc(C2NCCC3(OCCO3)C2(C)C)cc(OC)c1OC` (stereo unspecified), the “activity change, negative = inhibition” value was inactive: 8.01%. In the case of `CCOP(=O)(Nc1cccc2ccccc12)OCC`, the “activity change, negative = inhibition” value was inactive: 5.61%. For `O=[As](O)(O)c1cccnc1`, the “activity change, negative = inhibition” value was inactive: 1.51%. For `COc1cc(C(=O)NCC2(N3CCOCC3)CCCCC2)cc(Cl)c1OC(C)C`, the “activity change, negative = inhibition” value was inactive: -17.4%. In the case of `CS(=O)(=O)c1ccc(Cl)c(NC(=O)COC(=O)C(O)(c2ccccc2)c2ccccc2)c1`, the “activity change, negative = inhibition” value was inactive: 1.69%. For `O=C(OC1CN2CCC1CC2)c1ccc(Cl)cc1` (stereo unspecified), the “activity change, negative = inhibition” value was inactive: -11.3%. For `Cc1cccc(OCC(=O)OC2CN3CCC2CC3)c1` (stereo unspecified), the “activity change, negative = inhibition” value was inactive: 6.59%. With `O=[As](O)(c1cccc(O)c1)c1cccc(O)c1` the “activity change, negative = inhibition” value was inactive: -2.11%. For `NC(=O)Nc1ccc([As](=O)(O)O)cc1`, the “activity change, negative = inhibition” value was inactive: 15.5%. With `O=[N+]([O-])c1ccc2c(c1)nnn2O` the “activity change, negative = inhibition” value was inactive: -6.81%. In the case of `CN(C)C(=O)c1cc([N+](=O)[O-])cc2c1-c1c(cc([N+](=O)[O-])cc1[N+](=O)[O-])C2=O`, the Potency was active: 11.2 µM. In the case of `N#CCCN(C(=O)COC(=O)C(O)(c1ccccc1)c1ccccc1)c1ccc(F)cc1`, the “activity change, negative = inhibition” value was inactive: -1.82%. With `CCOP1(=S)c2c(C)nn(CCC#N)c2N=C(c2ccc(F)cc2)N1C` (stereo unspecified) the “activity change, negative = inhibition” value was inactive: -0.912%. With `CS(=O)(=O)c1cc([N+](=O)[O-])c2no[n+]([O-])c2c1` the “activity change, negative = inhibition” value was inactive: 2.79%. In the case of `CCOP1(=S)c2c(C)nn(CCC#N)c2N=C(c2ccccc2F)N1C` (stereo unspecified), the “activity change, negative = inhibition” value was inactive: 7.55%. In the case of `O=P(Nc1nccs1)(Oc1ccccc1)Oc1ccccc1`, the “activity change, negative = inhibition” value was inactive: 18%. With `Nc1ccccc1[As](=O)(O)c1ccccc1` the “activity change, negative = inhibition” value was inactive: -6.23%. In the case of `O=C(O)COc1ccc([As](=O)(O)O)cc1[N+](=O)[O-]`, the “activity change, negative = inhibition” value was inactive: 11.4%. In the case of `O=P1(Nc2ncccn2)COc2ccccc2OC1`, the “activity change, negative = inhibition” value was inactive: -0.572%. In the case of `Cc1ccc(OCC(=O)OC2CN3CCC2CC3)cc1` (stereo unspecified), the “activity change, negative = inhibition” value was inactive: 10.9%. With `O=[As](O)(c1cccs1)c1cccs1` the “activity change, negative = inhibition” value was inactive: 2.89%. For `O=P1(Nc2ccc(Br)cn2)COc2ccccc2OC1`, the “activity change, negative = inhibition” value was inactive: -12.8%. In the case of `NS(=O)(=O)c1cccc(NC(=O)COC(=O)C(O)(c2ccccc2)c2ccccc2)c1`, the “activity change, negative = inhibition” value was inactive: 4.04%. For `Nc1cccc([As](=O)(O)c2ccccc2)c1`, the “activity change, negative = inhibition” value was inactive: 21.2%. For `Cc1nn(-c2ccccc2)c2c1P(=O)(N1CCOCC1)N(C)C(c1ccccc1)=N2` (stereo unspecified), the Potency was “inactive”. For `CC1CCC(C(C)C)C(OP(=O)(Nc2ccccn2)c2ccccc2)C1` (stereo unspecified), the “activity change, negative = inhibition” value was inactive: 12.2%. For `Cc1ccc(C(=O)OC2CN3CCC2CC3)cc1` (stereo unspecified), the “activity change, negative = inhibition” value was inactive: 8.73%. For `O=C(/C=C/c1ccccc1)OC1CN2CCC1CC2` (stereo unspecified), the “activity change, negative = inhibition” value was inactive: 2.77%. With `CCCC1OP(=O)(Nc2ccccc2)OCC1CC` (stereo unspecified) the “activity change, negative = inhibition” value was inactive: 6.09%. With `CN(C)C1(CNC(=O)c2ccc(S(C)(=O)=O)cc2)CCCCC1` the “activity change, negative = inhibition” value was inactive: 7.33%. In the case of `CC1(CBr)Cn2c(nc3ccccc3c2=O)S1` (stereo unspecified), the “activity change, negative = inhibition” value was inactive: 11.2%. In the case of `CC(C)/C=N\N=C(\N)N[N+](=O)[O-]`, the “activity change, negative = inhibition” value was inactive: 13.3%. For `CN(C(=O)Cc1ccc(Cl)c(Cl)c1)[C@@H]1CCCC[C@H]1N1CCCC1`, the “activity change, negative = inhibition” value was inactive: -59.5%. With `CCOP(=O)(Nc1ccc(C)cn1)OCC` the “activity change, negative = inhibition” value was inactive: 1.73%. In the case of `CN(CCCl)Cc1cc(Cl)c(NC2=NCCN2)c(Cl)c1`, the “activity change, negative = inhibition” value was inactive: 32.1%. For `O=P1(Nc2ccccn2)COc2ccccc2OC1`, the “activity change, negative = inhibition” value was inactive: 3.61%. With `CCOP(=O)(NC(=NC(C)c1ccccc1)NC(C)c1ccccc1)OCC` (stereo unspecified) the “activity change, negative = inhibition” value was inactive: 11.5%. For `Clc1n[nH]nc1-c1nn[nH][15n]1`, the “activity change, negative = inhibition” value was inactive: 14.5%. With `CC(C)(C)C(=O)NC(Sc1ncccn1)C(Cl)(Cl)Cl` (stereo unspecified) the “activity change, negative = inhibition” value was inactive: -6.65%. With `CCOC(=O)c1ccc(NC(=O)C(C)(CCl)SC)cc1` (stereo unspecified) the “activity change, negative = inhibition” value was inactive: -12.7%. In the case of `O=C(OC1CN2CCC1CC2)c1cccc([N+](=O)[O-])c1` (stereo unspecified), the “activity change, negative = inhibition” value was inactive: -15.7%. In the case of `CCC(C)N(CC(C)C)C(=S)SC(NC(C)=O)C(Cl)(Cl)Cl` (stereo unspecified), the “activity change, negative = inhibition” value was inactive: 10.7%. For `COP1(=S)c2c(C)nn(CCC#N)c2N=C(c2ccc(F)cc2)N1C` (stereo unspecified), the “activity change, negative = inhibition” value was inactive: -3.81%. With `O=C(COc1ccccc1)OC1CN2CCC1CC2` (stereo unspecified) the “activity change, negative = inhibition” value was inactive: 24.1%. With `O=C(Nc1ccncc1[N+](=O)[O-])c1ccc([N+](=O)[O-])cc1[N+](=O)[O-]` the “activity change, negative = inhibition” value was inactive: -18.1%. For `CCOC(=O)Nc1cccc([As](=O)(O)O)c1`, the “activity change, negative = inhibition” value was inactive: -0.943%. With `O=[N+]([O-])c1ccc(Nc2ccc(Oc3ccc([N+](=O)[O-])cc3[N+](=O)[O-])cc2)c([N+](=O)[O-])c1` the “activity change, negative = inhibition” value was inactive: -21.9%. For `O=P(Nc1ccccn1)(c1cccc2ccccc12)c1cccc2ccccc12`, the “activity change, negative = inhibition” value was inactive: 7.99%. In the case of `Cc1cc(SC(NC=O)C(Cl)(Cl)Cl)ncn1` (stereo unspecified), the “activity change, negative = inhibition” value was inactive: 19.3%. For `CC1CCNP(=O)(N(CCCl)CCCl)O1` (stereo unspecified), the “activity change, negative = inhibition” value was inactive: 16.4%. In the case of `CCOC(=O)Nc1ccc([As](=O)(O)O)c(O)c1`, the “activity change, negative = inhibition” value was inactive: -13.7%. With `Cc1cc(SC(NC(=O)c2ccccc2)C(Cl)(Cl)Cl)nc(C(C)C)n1` (stereo unspecified) the “activity change, negative = inhibition” value was inactive: 9.27%. In the case of `COC(=O)C1(C)COP(=O)(N2CCCCCC2)OC1` (stereo unspecified), the “activity change, negative = inhibition” value was inactive: 29.3%. For `ClCCSc1nnc(-c2cccnc2)o1`, the “activity change, negative = inhibition” value was inactive: 13.3%. In the case of `CC(C)NC(=O)NP(=O)(Oc1ccccc1)Oc1ccccc1`, the “activity change, negative = inhibition” value was inactive: 19%. With `CCN(CC)C(=S)SC(NC=O)C(Cl)(Cl)Cl` (stereo unspecified) the “activity change, negative = inhibition” value was inactive: -16.3%. In the case of `O=C(OC1CN2CCC1CC2)c1cccc2[nH]cnc12` (stereo unspecified), the “activity change, negative = inhibition” value was inactive: 14.7%. In the case of `O=[N+]([O-])c1cc([N+](=O)[O-])c(-c2ccn[nH]2)s1`, the Potency was active: 10 µM. For `O=[As](O)(c1ccc(O)cc1)c1ccccc1O`, the “activity change, negative = inhibition” value was inactive: 2.18%. With `C[As](=O)(O)c1cccc(C(=O)O)c1` the “activity change, negative = inhibition” value was inactive: -0.902%. In the case of `O=[N+]([O-])c1ccc(-c2cc([N+](=O)[O-])c(O)c([N+](=O)[O-])c2)cc1`, the “activity change, negative = inhibition” value was inactive: 5.02%. In the case of `Cc1ccc(OP(=O)(Nc2ccc([N+](=O)[O-])cn2)Oc2ccc(C)cc2)cc1`, the “activity change, negative = inhibition” value was inactive: 5.02%. For `COc1ccc(N/C(=N/P(=O)(N2CCOCC2)N2CCOCC2)N2CCOCC2)cc1`, the “activity change, negative = inhibition” value was inactive: 8.05%. For `O=[N+]([O-])c1cc(Oc2ccc([N+](=O)[O-])cc2C(F)(F)F)cc([N+](=O)[O-])c1`, the “activity change, negative = inhibition” value was inactive: -20.2%. For `Cc1cc(=O)[nH]c(N[N+](=O)[O-])n1`, the “activity change, negative = inhibition” value was inactive: -7.58%. In the case of `COc1ccc2nc(NP(=O)(c3ccccc3)c3ccccc3)sc2c1`, the “activity change, negative = inhibition” value was inactive: 14.9%. For `O=P1(N(CCCl)CCCl)OCCCN1CCCl` (stereo unspecified), the “activity change, negative = inhibition” value was inactive: 16%. For `O=P1(N(CCCl)CCCl)Nc2ccccc2N1`, the “activity change, negative = inhibition” value was inactive: 10.2%. With `Nc1cc(N)c2nonc2c1[N+](=O)[O-]` the “activity change, negative = inhibition” value was inactive: 4.14%. In the case of `CC(C)CC(=O)NC(Sc1ccc(Cl)cc1)C(Cl)(Cl)Cl` (stereo unspecified), the “activity change, negative = inhibition” value was inactive: 5.94%. In the case of `Oc1ccccc1CNc1ccccn1`, the “activity change, negative = inhibition” value was inactive: 4.54%. With `O=C(NC(Sc1ccncn1)C(Cl)(Cl)Cl)c1ccccc1` (stereo unspecified) the “activity change, negative = inhibition” value was inactive: 4.7%. For `NC(=O)c1cc([N+](=O)[O-])cc([N+](=O)[O-])c1N`, the “activity change, negative = inhibition” value was inactive: 10.1%. For `C[C@H]1[C@@H](OS(=O)(=O)O)C[C@@H]2C[C@H]([C@@H](O)c3cc(=O)[nH]c(=O)[nH]3)NC3=NC[C@H]1N32`, the Potency was active: 2.24 µM.
